SMILES strings stand for the structures.

Sequences of proteins named here, by UniProt entry; tags and fusion partners are left off. Residues count along the entry.
UniProt P32886, 1505-1684 limits assumed: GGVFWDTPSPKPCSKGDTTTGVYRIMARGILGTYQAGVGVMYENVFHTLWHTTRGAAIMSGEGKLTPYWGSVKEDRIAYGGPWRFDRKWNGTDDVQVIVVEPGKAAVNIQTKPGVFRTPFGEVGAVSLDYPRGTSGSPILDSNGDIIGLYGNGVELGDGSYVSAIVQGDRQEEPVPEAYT

The assay concerns the target Japanese encephalitis virus (JEV)-NS2B-NS3 protease (Japanese encephalitis virus (strain Jaoars982) (JEV), UniProt P32886). The assay is described as follows: JEV Protease Inhibition Assay.
The IC50 is the concentration at which inhibition is half-maximal. `O=C([N-]c1c[n+](Cc2ccc(-c3ccncc3)cc2)no1)Nc1cccc(C(F)(F)F)c1` [Example 39, (3-(4-(pyridin-4-yl)benzyl)-1,2,3-oxadiazol-3-ium-5-yl)((3-(trifluoromethyl)phenyl)carbamoyl)amide] gave an IC50 of 1000 to 20000 nM.

In turn, `CC(c1ccccc1)[n+]1cc([N-]C(=O)Nc2cccc(C(F)(F)F)c2)on1` (stereo not shown) [Example 38, (3-(1-phenylethyl)-1,2,3-oxadiazol-3-ium-5-yl)((3-(trifluoromethyl)phenyl)carbamoyl)amide] came in with an IC50 of 1000 to 20000 nM.

On to `O=C([N-]c1c[n+](Cc2ccc(-c3cccnc3)cc2)no1)Nc1cccc(C(F)(F)F)c1` [Example 22, (3-(4-(pyridin-3-yl)benzyl)-1,2,3-oxadiazol-3-ium-5-yl)((3-(trifluoromethyl)phenyl)carbamoyl)amide], for which the IC50 was 1000 to 20000 nM.

`Cc1noc(C)c1-c1ccc(C[n+]2cc([N-]C(=O)Nc3ccnc(C(F)(F)F)c3)on2)cc1` [Example 186, (3-(4-(3,5-dimethylisoxazol-4-yl)benzyl)-1,2,3-oxadiazol-3-ium-5-yl)((2-(trifluoromethyl)pyridin-4-yl)carbamoyl)amide] returned an IC50 of 1000 to 20000 nM.

As for `O=C([N-]c1c[n+](Cc2ccc(-c3ccnnc3)cc2)no1)Nc1cccc(C(F)(F)F)c1` [Example 61, (3-(4-(pyridazin-4-yl)benzyl)-1,2,3-oxadiazol-3-ium-5-yl)((3-(trifluoromethyl)phenyl)carbamoyl)amide], the IC50 lay in the range of 1000 to 20000 nM.

Consider `O=C([N-]c1c[n+](Cc2cccc(Br)c2)no1)Nc1cccc(C(F)(F)F)c1` [Example 46, (3-(3-bromobenzyl)-1,2,3-oxadiazol-3-ium-5-yl)((3-(trifluoromethyl)phenyl)carbamoyl)amide], for which the IC50 was 1000 to 20000 nM.

`O=C([N-]c1c[n+](Cc2ccc(I)cc2)no1)Nc1cccc(C(F)(F)F)c1` [Example 47, (3-(4-iodobenzyl)-1,2,3-oxadiazol-3-ium-5-yl)((3-(trifluoromethyl)phenyl)carbamoyl)amide] yielded an IC50 of 1000 to 20000 nM.

As to `COc1ncncc1-c1ccc(C[n+]2cc([N-]C(=O)Nc3cccc(C(F)(F)F)c3)on2)cc1` [Example 62, (3-(4-(4-methoxypyrimidin-5-yl)benzyl)-1,2,3-oxadiazol-3-ium-5-yl)((3-(trifluoromethyl)phenyl)carbamoyl)amide], the IC50 was in the range of 1000 to 20000 nM.

Consider `Cn1cc(-c2cccc(C[n+]3cc([N-]C(=O)Nc4cccc(C(F)(F)F)c4)on3)c2)cn1` [Example 52, (3-(3-(1-methyl-1H-pyrazol-4-yl)benzyl)-1,2,3-oxadiazol-3-ium-5-yl)((3-(trifluoromethyl)phenyl)carbamoyl)amide], for which the IC50 lay in the range of 1000 to 20000 nM.

`O=C([N-]c1c[n+](Cc2ccc(-c3cncnc3)nc2)no1)Nc1cccc(C(F)(F)F)c1` [Example 103, (3-((6-(pyrimidin-5-yl)pyridin-3-yl)methyl)-1,2,3-oxadiazol-3-ium-5-yl)((3-(trifluoromethyl)phenyl)carbamoyl)amide] had an IC50 of 100 to 1000 nM.

`COc1ncc(-c2cccc(C[n+]3cc([N-]C(=O)Nc4cccc(C(F)(F)F)c4)on3)c2)cn1` [Example 53, (3-(3-(2-methoxypyrimidin-5-yl)benzyl)-1,2,3-oxadiazol-3-ium-5-yl)((3-(trifluoromethyl)phenyl)carbamoyl)amide]: the IC50 is 1000 to 20000 nM.

`COc1cc(-c2ccc(C[n+]3cc([N-]C(=O)Nc4cccc(C(F)(F)F)c4)on3)cc2)ccn1` [Example 63, (3-(4-(2-methoxypyridin-4-yl)benzyl)-1,2,3-oxadiazol-3-ium-5-yl)((3-(trifluoromethyl)phenyl)carbamoyl)amide] came in with an IC50 of 1000 to 20000 nM.

For the molecule `O=C([N-]c1c[n+](Cc2ccc(-c3cnccn3)cc2)no1)Nc1cccc(C(F)(F)F)c1` [Example 42, (3-(4-(pyrazin-2-yl)benzyl)-1,2,3-oxadiazol-3-ium-5-yl)((3-(trifluoromethyl)phenyl)carbamoyl)amide], the IC50 is 1000 to 20000 nM.

Molecule `O=C([N-]c1c[n+](Cc2cccc(-c3cccnc3)c2)no1)Nc1cccc(C(F)(F)F)c1` [Example 51, (3-(3-(pyridin-3-yl)benzyl)-1,2,3-oxadiazol-3-ium-5-yl)((3-(trifluoromethyl)phenyl)carbamoyl)amide] yielded an IC50 of 1000 to 20000 nM.

The molecule `CC(C[n+]1cc([N-]C(=O)Nc2cccc(C(F)(F)F)c2)on1)c1ccccc1` (stereo not shown) [Example 28, (3-(2-phenylpropyl)-1,2,3-oxadiazol-3-ium-5-yl)((3-(trifluoromethyl)phenyl)carbamoyl)amide] registered an IC50 of 1000 to 20000 nM.

In the case of `O=C([N-]c1c[n+](Cc2ccccc2)no1)Nc1cccc(C(F)(F)F)c1` [Example 6, (3-Benzyl-1,2,3-oxadiazol-3-ium-5-yl)((3-(trifluoromethyl)phenyl)carbamoyl) amide], the IC50 is 1000 to 20000 nM.

In turn, `Cc1ncncc1-c1ccc(C[n+]2cc([N-]C(=O)Nc3cccc(C(F)(F)F)c3)on2)cc1` [Example 60, (3-(4-(4-methylpyrimidin-5-yl)benzyl)-1,2,3-oxadiazol-3-ium-5-yl)((3-(trifluoromethyl)phenyl)carbamoyl)amide] displayed an IC50 of 100 to 1000 nM.

Consider `Cc1ccccc1-c1ccc(C[n+]2cc([N-]C(=O)Nc3cccc(C(F)(F)F)c3)on2)cc1` [Example 21, (3-((2′-methyl-[1,1′-biphenyl]-4-yl)methyl)-1,2,3-oxadiazol-3-ium-5-yl)((3-(trifluoromethyl)phenyl)carbamoyl)amide], for which the IC50 was 1000 to 20000 nM.

`O=C([N-]c1c[n+]([C@@H](CO)c2ccccc2)no1)Nc1cccc(C(F)(F)F)c1` [Example 30, (R)-(3-(2-hydroxy-1-phenylethyl)-1,2,3-oxadiazol-3-ium-5-yl)((3-(trifluoromethyl)phenyl)carbamoyl)amide]: the IC50 was 1000 to 20000 nM.

The molecule `O=C([N-]c1c[n+](Cc2cccc(-c3ccccc3)c2)no1)Nc1cccc(C(F)(F)F)c1` [Example 27, (3-([1,1′-biphenyl]-3-ylmethyl)-1,2,3-oxadiazol-3-ium-5-yl)((3-(trifluoromethyl)phenyl)carbamoyl)amide] displayed a half-maximal inhibitory concentration (IC50) of 1000 to 20000 nM.

As to `O=C([N-]c1c[n+](Cc2cccc(-c3cncnc3)c2)no1)Nc1cccc(C(F)(F)F)c1` [Example 50, (3-(3-(Pyrimidin-5-yl)benzyl)-1,2,3-oxadiazol-3-ium-5-yl)((3-(trifluoromethyl)phenyl)carbamoyl)amide], the IC50 is 1000 to 20000 nM.

For the molecule `O=C([N-]c1c[n+](Cc2ccc(-c3cncnc3)cc2)no1)Nc1cccc(C(F)(F)F)c1` [Example 26, (3-(4-(Pyrimidin-5-yl)benzyl)-1,2,3-oxadiazol-3-ium-5-yl)((3-(trifluoromethyl)phenyl)carbamoyl)amide], the IC50 was in the range of 1000 to 20000 nM.

The molecule `O=C([N-]c1c[n+](Cc2ccc(-c3cnoc3)cc2)no1)Nc1cccc(C(F)(F)F)c1` [Example 48, (3-(4-(isoxazol-4-yl)benzyl)-1,2,3-oxadiazol-3-ium-5-yl)((3-(trifluoromethyl)phenyl)carbamoyl)amide] had an IC50 of 1000 to 20000 nM.

For the molecule `O=C([N-]c1c[n+](Cc2cccnc2)no1)Nc1cccc(C(F)(F)F)c1` [Example 29, (3-(pyridin-3-ylmethyl)-1,2,3-oxadiazol-3-ium-5-yl)((3-(trifluoromethyl)phenyl)carbamoyl)amide], the IC50 is 100 to 1000 nM.

Molecule `O=C([N-]c1c[n+](Cc2ccc(Br)cc2)no1)Nc1cccc(C(F)(F)F)c1` [Example 19, (3-(4-bromobenzyl)-1,2,3-oxadiazol-3-ium-5-yl)((3-(trifluoromethyl)phenyl)carbamoyl)amide] came in with an IC50 of 1000 to 20000 nM.

The molecule `Cc1ncnc(C)c1-c1ccc(C[n+]2cc([N-]C(=O)Nc3ccnc(C(F)(F)F)c3)on2)cc1` [Example 185, (3-(4-(4,6-dimethylpyrimidin-5-yl)benzyl)-1,2,3-oxadiazol-3-ium-5-yl)((2-(trifluoromethyl)pyridin-4-yl)carbamoyl)amide] gave an IC50 of 1000 to 20000 nM.

Consider `O=C([N-]c1c[n+](CCc2ccccc2)no1)Nc1cccc(C(F)(F)F)c1` [Example 5, (3-phenethyl-1,2,3-oxadiazol-3-ium-5-yl)((3-(trifluoromethyl)phenyl)carbamoyl)amide], for which the IC50 is 1000 to 20000 nM.

Molecule `COc1ncc(-c2ccc(C[n+]3cc([N-]C(=O)Nc4cccc(C(F)(F)F)c4)on3)cc2)cn1` [Example 41, (3-(4-(2-methoxypyrimidin-5-yl)benzyl)-1,2,3-oxadiazol-3-ium-5-yl)((3-(trifluoromethyl)phenyl)carbamoyl)amide] showed an IC50 of 1000 to 20000 nM.

(Values after patent US20250353853A1, “FLAVIVIRUS INHIBITORS” (IRBM S.P.A., priority 2022, published 2025).)
